Molecules are shown by their SMILES. “Also recorded” adds a separate entry of the source. Some compounds share one wording; it may come from a single statement.

The test system of this data set is CorB. Briefly: Enzymatic cleavage using CorB (HPLC-DAD). It is filed as biochemical, Corallococcus exiguus SDU70. The note with it: 0.22 mM CorB, 37 °C, 12 hours.

Turning to `Cc1nc(CC(C)C)c(=O)[nH]c1C(C)C` [compound 1, coralinone A], the “enzymatic hydrolysis by CorB” value is given as “no enzymatic reaction happened; also recorded: remained unchanged”.
Same read-out and setting: in the case of `CC[C@H](C)c1[nH]c(=O)c(CC(C)C)nc1C` [compound 2, coralinone B] it was “no enzymatic reaction happened”.
For the compound `CC(=O)[C@@H](NC(=O)[C@H](CC(C)C)NC(=O)OC(C)(C)C)C(C)C` [1b′], the “enzymatic hydrolysis by CorB” value was “remained unchanged”. The “enzymatic hydrolysis by CorB” value (listed as 1b') was “no enzymatic reaction happened”.

The record behind these values is paper PMC10979478, “Deciphering the Biosynthesis and Physiological Function of 5-Methylated Pyrazinones Produced by Myxobacteria” (ACS Central Science, 2024).
